The source of these data is PMC9224473 (International Journal of Molecular Sciences, 2022).

The subject of series [1] is HCT116 (human colon cancer). Kind of series: MTT cytotoxicity assay. It is filed as cell-based. As to conditions: HaCaT versus HCT116. The protocol: (§1) The human cell lines SW480 (primary colon cancer), SW620 (lymph node metastatic colon cancer from the same patient as primary cancer cells), HCT116 (colon carcinoma), HepG2 (liver cancer), and HaCaT (immortalized keratinocytes) were obtained from the American Type Culture Collection (ATCC, Rockville, MD, USA). The SW480, SW620 and HCT116 cells were grown in MEM (ThermoSci, Waltham, MA, USA), HepG2 and HaCaT in DMEM High Glucose (Biowest SAS, Nuaillé, France) supplemented with 10% foetal bovine serum (FBS), HEPES (20 mM), and antibiotics (100 U mL^−1 of Penicillin and 100 μg mL^−1 of Streptomycin). The cells were incubated in a humidified incubator at 37 °C/5% CO2, until 80–90% confluence was reached.
(§2) The cell viability was assessed by using of MTT salt [3-(4,5-dimethylthiazol-2-yl)-2,5-diphenyltetrazolium bromide] converted by mitochondrial dehydrogenase, occurring in living cells. The cells were seeded in 96-well plates at a density of 1 × 10^4 cells per well and allowed to adhere for 24 h at 37 °C in a CO2 humidified incubator. […]. The untreated cells were used as the control.
(§3) After 72 h incubation, the medium was replaced with 200 µL per well of free-serum medium containing 0.5 mg mL^−1 MTT and incubated for 4 h at 37 °C in a CO2 humidified incubator. Subsequently, the medium was removed and dimethyl sulfoxide (DMSO) with isopropanol (1:1) was added to dissolve the formazan crystals. The optical density was measured using UVM 340 reader (ASYS Hitech GmbH, Eugendorf, Austria) at a wavelength of 570 nm. The experiments were repeated three times. The cell viability was calculated as the percent of MTT reduced in treated cells versus control cells (untreated cells). The number of viable cells cultured without tested compounds was assumed as 100%. A decreased relative MTT level indicates decreased cell viability. The IC50 values were estimated using CompuSyn version 1.0.

For series [2], the system named is SW480 (human primary colon cancer). The experiment in a line: MTT cytotoxicity assay. The format is cell-based. As to conditions: HaCaT versus SW480. As for the experimental part: as §1, §2, §3
Series [3] deals with HepG2 (human liver cancer). The experiment in a line: MTT cytotoxicity assay. It is filed as cell-based. As to conditions: HaCaT versus HepG2. As for the experimental part:
as §1, §2, §3

In series [4] the test system is SW620 (human metastatic colon cancer). Kind of series: MTT cytotoxicity assay. It is filed as cell-based. As to conditions: HaCaT versus SW620. As for the experimental part:
as §1
The cell viability was assessed by using of MTT salt [3-(4,5-dimethylthiazol-2-yl)-2,5-diphenyltetrazolium bromide] converted by mitochondrial dehydrogenase, occurring in living cells. […] The untreated cells were used as the control.
as §3, with “Subsequently,” for “After 72 h incubation, the medium was replaced with 200 µL per well of free-serum medium containing 0.5 mg mL^−1 MTT and incubated for 4 h at 37 °C in a CO2 humidified incubator. Subsequently,”

For series [5], the system named is cancer cells (HepG2, HCT-116, SW480, SW620) versus HaCaT. Kind of series: MTT assay, selectivity over the cancer cell panel. It is filed as cell-based, human. Conditions: range over HepG2, HCT116, SW480, SW620.

Some ranges recur; such a range may be that of the whole group of compounds.

Take `CC(C)[C@@H]1CC[C@@H](C)C[C@H]1OC(=O)CCCCOC(=O)c1cn(C2CC2)c2cc(N3CCN(CCCCC(=O)O[C@@H]4C[C@H](C)CC[C@H]4C(C)C)CC3)c(F)cc2c1=O` [Compound 7, 5-((1R,2S,5R)-2-isopropyl-5-methylcyclohexyloxy)-5-oxopentyl-1-cyclopropyl-6-fluoro-7-{4-[5-((1R,2S,5R)-2-isopropyl-5-methylcyclohexyloxy)-5-oxopentyl]piperazin-1-yl}-4-oxo-1,4-dihydroquinoline-3-carboxylate]: the “SI HCT116 (IC50 for normal cell line/IC50 cancer cell line)” value (“SI HCT116” for short) in series [1] is given as 0.5. For the same compound, the “SI SW480 (IC50 for normal cell line/IC50 cancer cell line)” value (shortened to “SI SW480”) in series [2] turned out to be 0.6. Further, the “SI HepG2 (IC50 for normal cell line/IC50 cancer cell line)” value (shortened to “SI HepG2”) in series [3] is 0.8. In addition, the “SI SW620 (IC50 for normal cell line/IC50 cancer cell line)” value (shortened to “SI SW620”) in series [4] is 0.4.
Take `Cc1ccc(C(C)C)c(OC(=O)CCCCCOC(=O)c2cn(C3CC3)c3cc(N4CCN(CCCCCC(=O)Oc5cc(C)ccc5C(C)C)CC4)c(F)cc3c2=O)c1` [Compound 16]: the “SI HCT116” value in series [1] worked out at 2.1. The “SI SW480” value in series [2] is given as 2.2. For the same compound, in series [3], the “SI HepG2” value was determined as 1.5. For the same compound, the “SI range over cancer cell lines” value in series [5] was 1.9–3.4. For the same compound, the “SI SW620” value in series [4] stood at 1.3.
In the case of `CC(C)[C@@H]1CC[C@@H](C)C[C@H]1OC(=O)CCCCCOC(=O)c1cn(C2CC2)c2cc(N3CCN(CCCCCC(=O)O[C@@H]4C[C@H](C)CC[C@H]4C(C)C)CC3)c(F)cc2c1=O` [Compound 8, 6-((1R,2S,5R)-2-isopropyl-5-methylcyclohexyloxy)-6-oxohexyl-1-cyclopropyl-6-fluoro-7-{4-[6-((1R,2S,5R)-2-isopropyl-5-methylcyclohexyloxy)-6-oxohexyl]piperazin-1-yl}-4-oxo-1,4-dihydroquinoline-3-carboxylate], the “SI HCT116” value in series [1] is recorded as 1.1. The “SI SW480” value in series [2] stood at 0.4. In series [3], the “SI HepG2” value was determined as 1.1. Also, the “SI SW620” value in series [4] stood at 0.7.
“2-(2-isopropyl-5-methylphenoxy)-2-oxobutyl-1-cyclopropyl-6-fluoro-7-{4-[2-(2-isopropyl-5-methylphenoxy)-2-oxobutyl]piperazin-1-yl}-4-oxo-1,4-dihydroquinoline-3-carboxylate [Compound 15]”: the “SI HCT116” value in series [1] amounted to 1.4. Moreover, the “SI SW480” value in series [2] is 1.6. Besides, in series [3], the “SI HepG2” value is recorded as 1.1. Moreover, in series [4], the “SI SW620” value is 1.1.
